{
  "source": "patent US20110045103A1",
  "about": "“METHODS FOR TREATING AIDS” (priority 2009, published 2011)",
  "test_system": "human immunodeficiency virus (HIV) Type I, strain HTLV-IIIB",
  "experiment": "Neutralization control: cytotoxicity control dilutions challenged with low titer stock virus",
  "type": "cell-based, HIV Type 1",
  "settings": "low titer stock virus challenge, MT-2 cells",
  "note": "No dose or concentration is given here for some results.",
  "data": [
    {"smiles": "Cl.N", "note": "[Ammonium Chloride, ammonium chloride]", "values": [
      {"measurement": "Neutralization control: test substance neutralized at a TCID50 of", "value": "of ≦1.5 Log10"},
      {"measurement": "Neutralization control: test substance neutralized at a TCID50 of", "setting": "listed as test substance", "value": "≤ 1.5", "unit": "Log10"}
    ]}
  ]
}
